Measured values taken from the supplement of paper PMC11923942.

Tests used:
[1] = GC retention time (DB-5MS, GC-APCI); higher = later elution
Procedure: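 Standards of hydrophobic organic contaminants were analysed by GC-APCI (positive mode, dry or wet source conditions) coupled to cyclic ion mobility-QTOF MS. CCS was measured for the base ion (sometimes a fragment ion) in N2 drift gas (one-pass mode, calibrated with a Waters 22-compound mix). 5 mL/min).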

[2] = collision cross section (N2, base ion); higher = larger ion cross section
Procedure: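 Standards of hydrophobic organic contaminants were analysed by GC-APCI (positive mode, dry or wet source conditions) coupled to cyclic ion mobility-QTOF MS. CCS was measured for the base ion (sometimes a fragment ion) in N2 drift gas (one-pass mode, calibrated with a Waters 22-compound mix).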

CCCCOP(=O)(OCCCC)OCCCC [Tributyl phosphate] (APCI source condition: Wet, base ion: [M+H]+)
GC retention time [1]: 13.8 min | collision cross section [2]: 167.02 Å²
